Pooled drug test results. Numbers come from NIAID ChemDB, via PubChem.

Blank or dashed fields: not listed here. Conditions beyond the fields shown may differ between rows. Inhibition is in % at the dose shown (toxicity tests: loss of growth or viability). ICn is the concentration giving n% inhibition. MIC bound: limit read from a one-dose screen.

structure,test,strain,species,read by,target,measure,dose,result
CCOc1ccccc1,culture,H37Rv,Mycobacterium tuberculosis,,,MIC,,>100 µg/mL
COc1ccc2c(c1)[n+]([O-])c(-c1ccccc1)c(N)[n+]2[O-],culture,H37Rv,Mycobacterium tuberculosis,BACTEC,,MIC,,3.13 µg/mL
Fc1ccc(N2CCCCC2)c(NC(=S)c2ccncc2)c1,host protein,,,kinase activity,CHK1,inhibition,10 µM,-3%
CCn1c2ccccc2c2cc(NC(=O)NC(=O)c3ccccc3)ccc21,culture,H37Rv,Mycobacterium tuberculosis,BACTEC,,MIC bound,,>12.5 µg/mL
CC(=O)NS(=O)(=O)c1cc(N)ccc1S(=O)(=O)c1ccc(N)cc1,culture,H37Rv,Mycobacterium tuberculosis,,,MIC,,50 µg/mL
CC(C)Oc1ccc(C(=O)NS(=O)(=O)c2ccc(N=Nc3c(O)n(-c4ccccc4)n(-c4ccccc4)c3=O)cc2)cc1,culture,H37Rv,Mycobacterium tuberculosis,BACTEC,,MIC,,≥12.8 µg/mL
COc1cccc(Cc2ccc(OC)c(OC)c2C(=O)O)c1O,culture,H37Rv,Mycobacterium tuberculosis,,,MIC,,>100 µg/mL
O=C1C2=C(Nc3cc([N+](=O)[O-])ccc3N2)OC1c1ccccc1Cl,culture,H37Rv,Mycobacterium tuberculosis,BACTEC,,inhibition,12.5 µg/mL,-19%
FC1(c2cncc(N3CCN(c4cnccn4)CC3)n2)C=CC(c2ccccc2)=CC1,target,,Cytomegalovirus,,UL97 kinase,IC50,,<100 µM
Nc1c(S(=O)(=O)[O-])cc(Br)c2c1C(=O)c1ccccc1C2=O.[Na+],culture,H37Rv,Mycobacterium tuberculosis,,,MIC,,>100 µg/mL
COc1cccc(-c2cncc(N3CCN(c4ccccc4)CC3)n2)c1,target,,Cytomegalovirus,,UL97 kinase,inhibition,1 µM,<50%
Cc1cc(Cl)nc(Cl)c1CCCl,culture,H37Rv,Mycobacterium tuberculosis,,,MIC,,>100 µg/mL
CC(=O)c1ccc(N2CCN(c3cncc(-c4ccc(F)cc4)n3)CC2)cc1,target,,Cytomegalovirus,,UL97 kinase,inhibition,1 µM,<50%
CCCNC(C)C(O)c1ccccc1.Cl,culture,H37Rv,Mycobacterium tuberculosis,,,MIC,,>100 µg/mL
CC(=O)c1ccc(N2CCN(c3cncc(-c4ccc(C(C)(C)C)cc4)n3)CC2)cc1,target,,Cytomegalovirus,,UL97 kinase,inhibition,10 µM,>15%
CCOC(=O)C(=O)C1C(=O)N(C)C2(C)CC1c1ccccc1O2,culture,H37Rv,Mycobacterium tuberculosis,BACTEC,,MIC bound,,>12.5 µg/mL
O=S1c2ccccc2Oc2ccccc21,culture,H37Rv,Mycobacterium tuberculosis,,,MIC,,>100 µg/mL
Cc1cccc(C)c1NCC(=O)NN,culture,H37Rv,Mycobacterium tuberculosis,BACTEC,,inhibition,12.5 µg/mL,15%
c1ccc(N2CCN(c3cncc(-c4cccs4)n3)CC2)nc1,target,,Cytomegalovirus,,UL97 kinase,inhibition,10 µM,>15%
[N-]=[N+]=CC(=O)OC[C@@H]1NC(=O)[C@@H](COC(=O)C=[N+]=[N-])NC1=O,culture,H37Rv,Mycobacterium tuberculosis,BACTEC,,inhibition,12.5 µg/mL,4%
FC(F)(F)c1cccc(N2CCN(c3cncc(-c4ccc5ccccc5c4)n3)CC2)c1,target,,Cytomegalovirus,,UL97 kinase,inhibition,10 µM,>15%

The first 2 rows once more:

structure | test | strain | species | read by | target | measure | dose | result
CCOc1ccccc1 | culture | H37Rv | Mycobacterium tuberculosis |  |  | MIC |  | >100 µg/mL
COc1ccc2c(c1)[n+]([O-])c(-c1ccccc1)c(N)[n+]2[O-] | culture | H37Rv | Mycobacterium tuberculosis | BACTEC |  | MIC |  | 3.13 µg/mL